Test results published in patent US5585367A (priority 1990, dated 1996).

What was measured:
HIV-1 [1] = details: for Measure of the infectious power of the HIV-1 (p24): 14th day after inoculation
HIV-1 [2] = details: virus previously treated; syncytia in virus control from 14th day

For `N=C(N)N=NC(=N)N`, the “protection of Supt-1 cells” value (HIV-1 [1]; dilution 1/500, treatment of the viruses for 1 minute only) was “protects the Supt-1 cells”, the “Measure of the infectious power of the HIV-1 (p24)” value (shortened to “Measure”) (HIV-1 [1]; dilution 1/500, viruses treated 1 min) was 0.234 ± 0.008 optical density 492 nm and the “Measure” value (HIV-1 [1]; dilution 1/500, viruses treated 10 min) was 0.267 ± 0.021 optical density 492 nm. The “Measure” value (HIV-1 [1]; dilution 1/500, viruses treated 30 min) was 0.245 ± 0.020 optical density 492 nm, the “Measure” value (HIV-1 [1]; dilution 1/1500, viruses treated 1 min) was 0.469 ± 0.013 optical density 492 nm and the “Measure” value (HIV-1 [1]; dilution 1/1500, viruses treated 10 min) was 0.439 ± 0.008 optical density 492 nm. For the same compound, the “Measure” value (HIV-1 [1]; dilution 1/1500, viruses treated 30 min) was 0.406 ± 0.032 optical density 492 nm, the “Measure” value (HIV-1 [1]; dilution 1/3000, viruses treated 1 min) was 0.809 ± 0.049 optical density 492 nm and the “Measure” value (HIV-1 [1]; dilution 1/3000, viruses treated 10 min) was 0.505 ± 0.023 optical density 492 nm. For the same compound, the “Measure” value (HIV-1 [1]; dilution 1/3000, viruses treated 30 min) was 0.740 ± 0.013 optical density 492 nm and the cytopathogenic effect (HIV-1 [2]) was “no cytopathogenic effect was observed”.

Where two headings read alike, the source gives them in different places.
